Data reported in a compilation of properties of binary mixtures (doi:10.1016/j.fluid.2021.113137).

Experiment: xn = mol fraction of the nth substance listed
Conditions: 100 kPa

CCCC[N+]1(C)CCCC1.O=S(=O)(F)[N-]S(=O)(=O)F + O
Conditions | electrical conductivity [S/m] | mass density [kg/m3] | viscosity [mPa·s]
288.15 K, x1 = 0.8018 | – | 1306.6 | 46.91
288.15 K, x1 = 0.817 | 0.635 | – | –
288.15 K, x1 = 0.8545 | – | 1308.9 | 53.6
288.15 K, x1 = 0.8556 | 0.583 | – | –
288.15 K, x1 = 0.8758 | – | 1310.1 | 55.8
288.15 K, x1 = 0.9182 | – | 1311.6 | 62.8
288.15 K, x1 = 0.9283 | 0.512 | – | –
288.15 K, x1 = 0.9457 | – | 1312.5 | 67.4
288.15 K, x1 = 0.9578 | 0.485 | – | –
288.15 K, x1 = 0.9727 | – | 1313.8 | 72.3
288.15 K, x1 = 0.9771 | 0.464 | – | –
293.15 K, x1 = 0.8018 | – | 1302.8 | 39.15
293.15 K, x1 = 0.8545 | – | 1305.1 | 44.66
293.15 K, x1 = 0.8556 | 0.685 | – | –
293.15 K, x1 = 0.8758 | – | 1306.4 | 46.46
293.15 K, x1 = 0.8777 | 0.671 | – | –
293.15 K, x1 = 0.9002 | 0.635 | – | –
293.15 K, x1 = 0.9283 | 0.605 | – | –
293.15 K, x1 = 0.9457 | – | 1308.8 | 55.8
293.15 K, x1 = 0.9578 | 0.573 | – | –
293.15 K, x1 = 0.9727 | – | 1310 | 59.6
293.15 K, x1 = 0.9771 | 0.55 | – | –
298.15 K, x1 = 0.8018 | – | 1298.6 | 33.09
298.15 K, x1 = 0.817 | 0.859 | – | –
298.15 K, x1 = 0.8545 | – | 1301.1 | 37.66
298.15 K, x1 = 0.8758 | – | 1302.4 | 39.11
298.15 K, x1 = 0.8777 | 0.777 | – | –
298.15 K, x1 = 0.9002 | 0.739 | – | –
298.15 K, x1 = 0.9182 | – | 1303.8 | 43.67
298.15 K, x1 = 0.9283 | 0.705 | – | –
298.15 K, x1 = 0.9457 | – | 1304.8 | 46.64
298.15 K, x1 = 0.9578 | 0.669 | – | –
298.15 K, x1 = 0.9727 | – | 1305.9 | 49.7
298.15 K, x1 = 0.9771 | 0.643 | – | –
303.15 K, x1 = 0.8018 | – | 1294.8 | 28.26
303.15 K, x1 = 0.817 | 0.985 | – | –
303.15 K, x1 = 0.8556 | 0.923 | – | –
303.15 K, x1 = 0.8758 | – | 1298.4 | 33.28
303.15 K, x1 = 0.8777 | 0.904 | – | –
303.15 K, x1 = 0.9182 | – | 1299.9 | 37.01
303.15 K, x1 = 0.9457 | – | 1300.9 | 39.43
303.15 K, x1 = 0.9578 | 0.776 | – | –
303.15 K, x1 = 0.9727 | – | 1302.1 | 41.94
303.15 K, x1 = 0.9771 | 0.746 | – | –
308.15 K, x1 = 0.8018 | – | 1290.6 | 24.37
308.15 K, x1 = 0.817 | 1.12 | – | –
308.15 K, x1 = 0.8545 | – | 1293.1 | 27.62
308.15 K, x1 = 0.8556 | 1.05 | – | –
308.15 K, x1 = 0.8758 | – | 1294.3 | 28.58
308.15 K, x1 = 0.8777 | 1.03 | – | –
308.15 K, x1 = 0.9182 | – | 1295.9 | 31.67
308.15 K, x1 = 0.9283 | 0.943 | – | –
308.15 K, x1 = 0.9578 | 0.899 | – | –
308.15 K, x1 = 0.9727 | – | 1298.1 | 35.72
308.15 K, x1 = 0.9771 | 0.869 | – | –
313.15 K, x1 = 0.8018 | – | 1286.8 | 21.19
313.15 K, x1 = 0.817 | 1.26 | – | –
313.15 K, x1 = 0.8545 | – | 1289.2 | 23.97
313.15 K, x1 = 0.8758 | – | 1290.5 | 24.76
313.15 K, x1 = 0.8777 | 1.16 | – | –
313.15 K, x1 = 0.9002 | 1.11 | – | –
313.15 K, x1 = 0.9182 | – | 1292.1 | 27.34
313.15 K, x1 = 0.9283 | 1.07 | – | –
313.15 K, x1 = 0.9457 | – | 1292.9 | 29.01
313.15 K, x1 = 0.9578 | 1.02 | – | –
313.15 K, x1 = 0.9727 | – | 1294.2 | 30.71
318.15 K, x1 = 0.8018 | – | 1282.8 | 18.58
318.15 K, x1 = 0.817 | 1.41 | – | –
318.15 K, x1 = 0.8545 | – | 1285.3 | 20.97
318.15 K, x1 = 0.8556 | 1.33 | – | –
318.15 K, x1 = 0.8758 | – | 1286.6 | 21.62
318.15 K, x1 = 0.9002 | 1.24 | – | –
318.15 K, x1 = 0.9182 | – | 1288.2 | 23.8
318.15 K, x1 = 0.9457 | – | 1289.2 | 25.2
318.15 K, x1 = 0.9578 | 1.15 | – | –
318.15 K, x1 = 0.9727 | – | 1290.3 | 26.63
323.15 K, x1 = 0.8545 | – | 1281.4 | 18.49
323.15 K, x1 = 0.8758 | – | 1282.7 | 19.02
323.15 K, x1 = 0.8777 | 1.46 | – | –
323.15 K, x1 = 0.9182 | – | 1284.3 | 20.87
323.15 K, x1 = 0.9283 | 1.35 | – | –
323.15 K, x1 = 0.9457 | – | 1285.4 | 22.06
323.15 K, x1 = 0.9578 | 1.29 | – | –
323.15 K, x1 = 0.9727 | – | 1286.3 | 23.25
328.15 K, x1 = 0.8018 | – | 1275.1 | 14.57
328.15 K, x1 = 0.8545 | – | 1277.6 | 16.3
328.15 K, x1 = 0.8556 | 1.65 | – | –
328.15 K, x1 = 0.8758 | – | 1278.9 | 16.84
328.15 K, x1 = 0.8777 | 1.62 | – | –
328.15 K, x1 = 0.9182 | – | 1280.5 | 18.42
328.15 K, x1 = 0.9457 | – | 1281.5 | 19.44
328.15 K, x1 = 0.9578 | 1.44 | – | –
328.15 K, x1 = 0.9771 | 1.4 | – | –
333.15 K, x1 = 0.817 | 1.92 | – | –
333.15 K, x1 = 0.8545 | – | 1273.8 | 14.36
333.15 K, x1 = 0.8556 | 1.83 | – | –
333.15 K, x1 = 0.9002 | 1.72 | – | –
333.15 K, x1 = 0.9182 | – | 1276.6 | 16.36
333.15 K, x1 = 0.9283 | 1.67 | – | –
333.15 K, x1 = 0.9578 | 1.6 | – | –
333.15 K, x1 = 0.9727 | – | 1278.8 | 18.12
333.15 K, x1 = 0.9771 | 1.56 | – | –
